The exact form of at least one protein or probe is not confirmed.
Molecular target: rArlR (phosphorylated with acetylphosphate) (Staphylococcus aureus USA300 TCH1516) (UniProt Q9KJN4)
Assay: EMSA
Conditions: 0.5-2 ug rArlR, 0.4 ng DNA, DIG Gel Shift Kit (Roche) per manufacturer, 25 C, 30 min, 6% non-denaturing PAGE, salt and pH not stated, recombinant protein, protein details: His (pET-28a, XbaI/XhoI), label: digoxigenin (DIG-ddUTP), probe letters rebuilt from the primers and the genome

Chains of the proteins cited; added tags and fusions are not shown. Lines headed by an entry give the natural chain unless they say otherwise; changes in a name come on top.
UniProt Q9KJN4: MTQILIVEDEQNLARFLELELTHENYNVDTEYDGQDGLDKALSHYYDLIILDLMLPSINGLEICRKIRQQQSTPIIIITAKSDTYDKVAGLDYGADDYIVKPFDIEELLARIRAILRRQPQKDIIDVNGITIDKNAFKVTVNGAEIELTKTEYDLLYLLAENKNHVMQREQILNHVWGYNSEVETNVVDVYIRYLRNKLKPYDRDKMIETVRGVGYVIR

## TAATTATCATTATAACAGTATTTCTTAAAAATGTAAGATGTGTTAGAATATACGTATAACTTACTACTAACAAAGGGATTAATAATCTTTTTTATAAGTGTAGAAACTTATCTGAAAAATTAGGTTTTTCTCATTTAATTTTAATG (double strand) [Pspx 146 bp]
  binding result: binds

Reference: publication PMC6455253
